Construct, isoform or probe ends are uncertain for at least one entry. At least one verdict was read from the data and is not stated in words by the source. Tags and fusion partners may be left off the protein sequences shown.

In the data set the target is T1, Oct-2 (UniProt P09086).
T1 sequence (looked up, limits assumed): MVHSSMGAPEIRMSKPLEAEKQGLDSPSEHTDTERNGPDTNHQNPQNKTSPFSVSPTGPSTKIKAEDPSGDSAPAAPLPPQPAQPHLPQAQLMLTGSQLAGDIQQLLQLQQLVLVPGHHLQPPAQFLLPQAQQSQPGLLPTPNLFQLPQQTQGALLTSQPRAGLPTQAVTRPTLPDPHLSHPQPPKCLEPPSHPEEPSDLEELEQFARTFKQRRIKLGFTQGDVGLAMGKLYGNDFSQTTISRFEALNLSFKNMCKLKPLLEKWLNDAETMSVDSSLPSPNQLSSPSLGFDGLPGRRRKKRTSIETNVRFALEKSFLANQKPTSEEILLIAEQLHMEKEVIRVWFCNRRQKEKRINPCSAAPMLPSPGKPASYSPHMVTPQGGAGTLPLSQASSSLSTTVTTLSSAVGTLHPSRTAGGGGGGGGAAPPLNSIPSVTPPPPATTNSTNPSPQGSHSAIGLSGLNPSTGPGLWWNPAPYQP
The data set can be described thus: EMSA. The following applies: EMSA with in vitro-translated protein and 32P-labelled annealed ds oligonucleotide, label: 32P (T4 PNK, 5' end).

As for “CAGTGATGCAAATCTTGT (double strand) [Oct probe]”, the binding result is given as “binds”.

Values taken from PMC3276558, “The B-Cell Specific Transcription Factor, Oct-2, Promotes Epstein-Barr Virus Latency by Inhibiting the Viral Immediate-Early Protein, BZLF1”.
